PubChem BioAssay AID1224833 | University of Georgia, 2016
Aim: 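Human genes whose knock-down alters rotavirus replication in monkey cells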 (primary screen). Cells: monkey MA104 kidney cells. Knock-down reagent: siRNA pool against human genes, 50 nM. Time to read-out: 48 h knock-down before infection; read 24 h after infection. Conditions: infection with rotavirus strain RV3 two days after transfection; infectious dose for this stage not given. Read-out: 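z-score of rotavirus antigen signal per well, from a fluorescent immunoassay, relative to non-targeting control wells on the same plate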. Scale: z-score vs non-targeting control: higher = more rotavirus replication than with non-targeting control. Rule for the call: In these data the active calls have z-score vs non-targeting control at about -1 or lower, or at about 1 or higher. Meaning of the calls: active = z-score beyond 1 either way; inactive = z-score within 1 of zero.
Shown is one part, drawn at random, of about 12,000 deposited reagents. About 5,600 of them (46%) count as active. 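Active calls cover z-scores past 1 in both directions, so they include lowered as well as raised rotavirus replication.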

SPEF2 | z-score vs non-targeting control = 0.46; call = inactive
CD300LB | z-score vs non-targeting control = 0.246; call = inactive
STARD10 | z-score vs non-targeting control = -0.937; call = inactive
RAMP3 | z-score vs non-targeting control = -0.279; call = inactive
ALDH4A1 | z-score vs non-targeting control = -0.87; call = inactive
GDF6 | z-score vs non-targeting control = -0.9; call = inactive
MRPS14 | z-score vs non-targeting control = -0.368; call = inactive

Entries listed so far whose target name starts with S or s:
SPEF2 | z-score vs non-targeting control = 0.46; call = inactive
STARD10 | z-score vs non-targeting control = -0.937; call = inactive

Continued.
ROBO3 | z-score vs non-targeting control = 0.783; call = inactive
BRAT1 | z-score vs non-targeting control = -1.96; call = active
MIDEAS | z-score vs non-targeting control = 1.08; call = active
INTS15 | z-score vs non-targeting control = 4.16; call = active
FIP1L1 | z-score vs non-targeting control = -0.926; call = inactive
TREML1 | z-score vs non-targeting control = -0.685; call = inactive
MTHFSD | z-score vs non-targeting control = -1.33; call = active
DNAJB2 | z-score vs non-targeting control = -1.04; call = active
VPS26A | z-score vs non-targeting control = 0.18; call = inactive
LRRC4C | z-score vs non-targeting control = 0.866; call = inactive
SURF2 | z-score vs non-targeting control = 2.31; call = active
EPB41L3 | z-score vs non-targeting control = 0.203; call = inactive
